Target: Histamine H4 receptor (Homo sapiens, UniProt Q9H3N8)

The chains behind the UniProt entries cited, without tags or fusion partners. Where a name states a change or a piece, a line headed by the entry shows the natural chain unless it says otherwise.
UniProt Q9H3N8: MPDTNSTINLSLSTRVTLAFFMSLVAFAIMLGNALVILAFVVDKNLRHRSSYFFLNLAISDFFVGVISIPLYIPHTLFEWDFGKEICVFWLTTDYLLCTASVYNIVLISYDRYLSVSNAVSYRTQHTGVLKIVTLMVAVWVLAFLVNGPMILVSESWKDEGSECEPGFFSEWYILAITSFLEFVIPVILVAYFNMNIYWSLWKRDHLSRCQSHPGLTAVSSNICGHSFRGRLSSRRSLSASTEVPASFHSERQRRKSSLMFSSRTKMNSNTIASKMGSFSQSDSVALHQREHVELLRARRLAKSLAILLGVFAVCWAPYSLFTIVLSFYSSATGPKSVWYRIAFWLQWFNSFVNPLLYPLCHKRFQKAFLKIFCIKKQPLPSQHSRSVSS

Ki: 50.2 nM
SMILES: CN(C)CCCN1c2ccccc2Sc2ccc(Cl)cc21 [[3-(2-Chloro-phenothiazin-10-yl)-propyl]-dimethyl-amine(Chlorpromazine)]

— BindingDB's records for doi:10.1124/mol.59.3.427 (The Centre For Addiction and Mental Health, 2001)
